Library screen at single concentrations

Data taken from ChEMBL document CHEMBL3988442, “University of Dundee, Small-Polar-MMV Screening Library” (2021).

The filed quantity is “Percent Effect” (%).
How 0% and 100% were set is not recorded. Most values in the screen are low, and negative values occur.
This is part of a subset picked to be rich in strong results.

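Phenotypic screen: M. tuberculosis growth, glucose 7H9 medium, 3 days; the read-out is not stated. Compounds at 500 µM. Higher reads as more growth inhibition (inferred: compounds with an IC50 in retests scored well above the rest). Of about 18,000 compounds tested this way, about 1,400 (7.9%) reached 50% or more in at least one test.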

structure,effect
CCn1cc(N)ccc1=O,-118.3
CCn1cnnc1CNc1ncccc1F,12.47
CCC(CC)(CC)SCC(=O)N1CCNC(=O)C1,-8.512
O=C1CNc2ccncc2N1,9.91
CCCNC(=O)CNC(=O)Cn1nc(C)c(Cl)c1C,-3.229
CN(C)C(=O)Cc1ccc(NC(=O)C2CC2)cc1,28.12
NC1(CO)CCOc2ccccc21 (stereo unspecified),4.726
CCCn1nnc(NC(=O)c2cccnc2)n1,18.78
CN(C)CCNCc1ccc2c(c1)n(C)c(=O)n2C,0.07323
CN1CCCN(Cc2cc(F)cc(F)c2)CC1=O,62.11
Nc1ccnc(-c2ccc(CO)cc2)c1,12.12
Clc1cnc(NCCNCc2cc[nH]n2)c(Cl)c1,65.78
Cc1nc(CC(=O)NCCSc2nnnn2C)c(C)s1,24.08
CCC(N)C(=O)N1CCN(c2ccncc2Cl)CC1 (stereo unspecified),2.085
CCc1nn(C)c(CC)c1S(=O)(=O)N1CCC(N)CC1,10.81
Cc1cc(S(=O)(=O)NCCN)ccc1F,27
CCOC(=O)c1ccccc1N1C(=O)C=CC1=O,105.7
NCCCC(=O)N1CCc2ccccc2C1,14.7
CN(Cc1cccnc1)CC1(CO)CC1,3.425
COC1(CNC(=O)c2cc(Cl)ccn2)CCC1,47.68
CSCC(=O)NCC1(CN2CCOCC2)CCCCC1,-1.018
COCC(C)NCc1ccccc1CN1CCCC1=O (stereo unspecified),4.86
NC(=O)C1CCCN(Cc2ccc(F)c(Br)c2)C1 (stereo unspecified),30.53
CC(N)CCc1ccc2c(c1)OCO2 (stereo unspecified),69.76
Cn1c(C(=O)N[C@H]2COC[C@@H]2O)cc2ccccc21,18.05
O=C(Nc1cnc(O)nc1O)c1ccccc1Br,26.27
CNC(=O)C1CCCN1Cc1cccc(N(C)C)c1 (stereo unspecified),16.18
COc1cc(C)c(S(=O)(=O)N2C[C@@H](O)[C@@H](O)C2)cc1C,53.36
CC(C)N(C)S(=O)(=O)N(C)Cc1ccc(Br)o1,72.58
CC(C)Cc1nc(C#N)c(NCc2ccncc2)o1,-8.804
NC(=O)CN1CCN(c2cccc(Cl)c2)CC1,34.03
CC(C(=O)NC(N)=O)N(C)Cc1ccc(Br)o1 (stereo unspecified),23.77
CC(C)c1cc(C(=O)NCCN(C)S(C)(=O)=O)no1,31.38
CSCC(CCO)Nc1nnnn1-c1ccc(C)cc1 (stereo unspecified),38.12
O=C(CC1=CCCCC1)N1CCOc2ccncc21,23.72
CCOc1cccc(CNS(C)(=O)=O)c1,47.87
O[C@@H]1CNC[C@H](O)C1,5.407
CCC(C)NCC(=O)OC (stereo unspecified),-8.79
CCc1nnc(CNc2cc([C@H]3C[C@@H](N)C3)ncn2)s1,16.37
OC1(CN2CCc3ccccc3C2)CNCCOC1 (stereo unspecified),10.42
NC(=O)CC1COCCN1 (stereo unspecified),-5.035
OCC(O)CSCc1ccc(F)cc1 (stereo unspecified),25.72
COc1ccccc1CC(=O)Nc1ncc(C(N)=O)s1,63.42
CC1C(=O)NCCCN1C(=O)NCc1ccsc1Br (stereo unspecified),26.29
C[C@H](N)C(=O)NCCO,7.865
C=C(Br)CNC(C(=O)N1CCOCC1)C(C)C (stereo unspecified),-3.058
OCC(O)CNc1cc(C(F)(F)F)nc2ccccc12 (stereo unspecified),31.59
Cn1cnc(S(=O)(=O)NC2CCCCNC2=O)c1Cl (stereo unspecified),14.5
NCC(O)c1cccc(F)c1 (stereo unspecified),20.81
CN(C)C1(CNC(=O)c2ccccn2)CCCC1,49.17
OCCNC1CCOCC1,2.458
OC(Cn1nnc(-c2ccsc2)n1)CC(F)(F)F (stereo unspecified),81.89
Cc1ccc(C(=O)N2CCCC2c2cccs2)c(=O)[nH]1 (stereo unspecified),19.7
COc1ccccc1C(C)N(C)S(C)(=O)=O (stereo unspecified),28.41
CC1CCN(CCNC(=O)Nc2ncnn2C)CC1,-22.71
COCC(=O)N(C)c1ccccc1,-6.743
CN1CCN(CC(O)CN(C)c2ccccn2)CC1 (stereo unspecified),8.602
Cc1c(O)cccc1C(=O)NC1CCOC1 (stereo unspecified),-13.39
O=C(CNC(=O)NCC1CC1)NCCc1ccccc1,-1.924
O=C(NCC(=O)c1cccs1)c1ccon1,37.39
CCOCCOCC(O)CN (stereo unspecified),2.724
CN1CCCN(C(=O)NCCCN(C)S(C)(=O)=O)CC1,-4.815
NCc1ccnc(N2CCCC2)n1,-19.02
O=C(CC1Sc2ccc(Cl)cc2NC1=O)OCCO (stereo unspecified),99.24
COCCN(CCOC)CCOc1cccc(C#N)c1,29.7
Cc1cc(NC(=O)CN2CCCC2)n(C)n1,-5.336
O=c1ccc(F)cn1Cc1ccn(-c2ccccc2)n1,36.48
COc1ccc(Br)c(S(=O)(=O)N(C)C)c1,54.72
CNC(=O)CCN1CCN(c2ccc(F)cc2Cl)CC1,2.511
CC1c2ccsc2CCN1CCC(=O)NC(N)=O (stereo unspecified),103.6